Pooled drug test results. Numbers come from NIAID ChemDB, via PubChem.

Common to all: whole-cell or culture tests; organism: HIV-1; read by: cytopathic effect / MTT; endpoint: EC50

ECn is the concentration giving n% inhibition of infection, replication or growth.

smiles,cells,changes,strain or isolate,value
Cc1cn([C@H]2C[C@H](N=[N+]=[N-])[C@@H](COC(=O)NCCSC(=O)OC[C@@H]3CC[C@H](n4cnc5c(=O)[nH]cnc54)O3)O2)c(=O)[nH]c1=O,MT-4,,WT,1 µM
O=C1Nc2cc(Cl)ccc2S(=O)(=O)n2cccc21,MT-4,,IIIB,35 µM
CC(C)=CCN1Cc2cc(Cl)ccc2NC(=O)C1C(C)C,MT-4,,,3.2 µM
COC(=O)c1ccc(Cl)cc1S(=O)(=O)/N=c1\sc(C(C)(C)C)c(C)n1C,MT-4,,IIIB,>25 µM
CC(C)=CCN1Cc2cc(Cl)ccc2NC(=S)C1C(C)C,MT-4,,,5.1 µM
Cc1c(C(C)(C)C)s/c(=N\S(=O)(=O)c2cc(Cl)ccc2O)n1C,MT-4,,IIIB,0.026 µM
CC(C)=CCN1Cc2cc(Cl)cc3[nH]c(=S)n(c23)C[C@@H]1C,CEM + CEM-SS,,MN,0.124 µM
C[C@H]1C(=O)Nc2ccc(Cl)cc2CN1Cc1ccco1,MT-4,,,19.7 µM
O=c1[nH]cnc2c1ncn2[C@H]1CC[C@@H](CO)O1,MT-2,,IIIB (BI-RG-587-RS),20.8 µM
Cc1cn([C@H]2C[C@H](N=[N+]=[N-])[C@@H](CO)O2)c(=O)[nH]c1=O,MT-4,RT-K103R V179D P225H,EFV-resistant (RT K103R V179D P225H),0.02 µM
Cc1c(C(C)(C)C)s/c(=N\S(=O)(=O)c2ccccc2[N+](=O)[O-])n1C,MT-4,,IIIB,>25 µM
CCOCn1c(Cc2ccccc2)c(C(C)C)c(=O)[nH]c1=O,MT-4,RT-Y181C,,2 µM
NC(N)=NCCC[C@H](N)C(=O)NC[C@@H]1OC(O[C@H]2[C@@H](O)[C@H](O[C@@H]3[C@@H](O)[C@H](NC(=O)[C@@H](N)CCCN=C(N)N)C[C@H](NC(=O)[C@@H](N)CCCN=C(N)N)[C@H]3O[C@H]3O[C@H](CNC(=O)[C@@H](N)CCCN=C(N)N)[C@@H](O)[C@H](O)[C@H]3NC(=O)[C@@H](N)CCCN=C(N)N)O[C@@H]2CO)[C@H](NC(=O)[C@@H](N)CCCN=C(N)N)[C@@H](O)[C@@H]1O,MT-4,,NL4-3,0.73 µM
COc1cc(CN2CCCNCCNCCCNCC2)c(OC)cc1CN1CCCNCCNCCCNCC1,MT-4,,NL4-3,0.02 µg/mL
Cc1c(C(C)(C)C)s/c(=N\S(=O)(=O)c2ccccc2)n1C,MT-4,,IIIB,>25 µM
CC(C)=CCN1Cc2ccccc2NC(=O)C1C,MT-4,,,29.6 µM
C/C=C/CN1C(=O)c2cccn2S(=O)(=O)c2ccc(Cl)cc21,MT-4,,IIIB,>300 µM
COC[C@H](NC(=O)C(F)(F)C(=O)[C@H](Cc1ccc(OCc2ccccc2)cc1)NC(=O)[C@@H](NC(=O)OCc1ccccc1)C(C)C)C(C)C,MT-4,,RF,<0.01 µM
Nc1ccn([C@H]2CC[C@@H](CO)O2)c(=O)n1,MT-2,,IIIB (BI-RG-587-RS),0.84 µM
Cc1cn([C@H]2C[C@H](N=[N+]=[N-])[C@@H](CO)O2)c(=O)[nH]c1=O,MT-4,,IIIB,0.0032 µM
CN1c2ccccc2N2C(=O)CN(CCN3CCOCC3)C(=O)C2c2cccn21,MT-4,,IIIB,198 µM
CC(C)=CCN1Cc2cc(Cl)ccc2NCC1C(C)C,MT-4,,,>100 µM
Cc1c(C(C)(C)C)s/c(=N\S(=O)(=O)c2cccc([N+](=O)[O-])c2)n1C,MT-4,,IIIB,0.085 µM
CN(C)CCN1CC(=O)N2c3ccccc3N(C)n3cccc3C2C1=O,MT-4,,IIIB,193 µM
Cc1cn([C@H]2C[C@H](N=[N+]=[N-])[C@@H](CO)O2)c(=O)[nH]c1=O,MT-4,AMD3100-resistant,NL4-3,0.008 µM
Cc1cn([C@H]2C=C[C@@H](CO)O2)c(=O)[nH]c1=O,MT-2,,IIIB (BI-RG-587-RS),3.5 µM
C[C@H]1C(=O)Nc2ccc(Cl)cc2CN1CC(N)=O,MT-4,,,>934 µM
N#Cc1ccc(Nc2nc(Cc3c(Cl)cccc3Cl)nc(NO)n2)cc1,MT-4,,LAI WT,0.002 µM
CC(C)=CCN1Cc2cc(Cl)ccc2NC(=O)C1c1ccccc1,MT-4,,,>100 µM
CC(C)CCNC(=O)C(F)(F)C(=O)[C@H](Cc1ccc(OCc2ccccc2)cc1)NC(=O)[C@@H](NC(=O)OCc1ccccc1)C(C)C,MT-4,,RF,>44 µM
COc1cccc(S(=O)(=O)/N=c2\sc(C(C)(C)C)c(C)n2C)c1,MT-4,,IIIB,11 µM
c1cc(CN2CCCNCCCNCCNCCC2)ccc1CN1CCCNCCCNCCNCCC1,MT-4,,NL4-3,0.04 µg/mL
O=C1Nc2ccccc2Sn2cccc21,MT-4,,IIIB,200 µM
c1ccc(-c2cc(CN3CCCNCCNCCCNCC3)ccc2CN2CCCNCCNCCCNCC2)cc1,SupT1 + Sup-T1,,168.10,0.24 µg/mL
CO[C@@H]1[C@@H](O)[C@@H](O)[C@H](O)[C@H](O)[C@H]1n1ccc(N)nc1=O,MT-4,,IIIB,>10 µg/mL
CC(C)N1C(=O)c2cccn2S(=O)(=O)c2ccc(Cl)cc21,MT-4,,IIIB,>300 µM
Cc1cn([C@H]2C[C@H](N=[N+]=[N-])[C@@H](COC(=O)NCCSC(=O)OC[C@H]3O[C@@H](n4cc(C)c(=O)[nH]c4=O)C[C@@H]3N=[N+]=[N-])O2)c(=O)[nH]c1=O,MT-4,RT-K103R V179D P225H,EFV-resistant (RT K103R V179D P225H),1 µM
CO[C@H]1[C@@H](O)[C@H](n2cnc3c(N)ncnc32)[C@@H](O)[C@H](O)[C@@H]1O,MT-4,,IIIB,<10 µg/mL
O=C(O)c1cc(CN2CCCNCCNCCCNCC2)ccc1CN1CCCNCCNCCCNCC1,MT-4,AMD3100-resistant,NL4-3,>250 µg/mL
Nc1ncnc2c1ncn2CCOCP(=O)(O)O,MT-2,,IIIB,10.8 µM
CO[C@H]1[C@@H](O)[C@H](n2ccc(N)nc2=O)[C@@H](O)[C@H](O)[C@@H]1O,MT-4,,IIIB,>10 µg/mL
O=C1c2cccn2S(=O)(=O)c2ccccc2N1Cc1ccccc1,MT-4,,IIIB,>300 µM
c1cc(CCN2CCCNCCNCCCNCC2)ccc1CCN1CCCNCCNCCCNCC1,MT-4,,RF,>250 µg/mL
CC(C)=CCN1Cc2cc(Cl)ccc2NC(=S)C1C,MT-4,,,1.6 µM
CO[C@@H]1[C@@H](O)[C@@H](O)[C@H](O)[C@H](O)[C@H]1n1cnc2c(N)ncnc21,MT-4,,IIIB,>10 µg/mL
N#Cc1ccc(Nc2nc(N)nc(Cc3c(Cl)cccc3Cl)n2)cc1,MT-4,RT-L100I K103N,NNRTI-resistant (RT L100I K103N),>10 µM
c1ncc(CN2CCCNCCNCCCNCC2)cc1CN1CCCNCCNCCCNCC1,MT-4,,AOM,0.05 µg/mL

4 of the rows above, restated:

smiles,cells,changes,strain or isolate,value
c1cc(CCN2CCCNCCNCCCNCC2)ccc1CCN1CCCNCCNCCCNCC1,MT-4,,RF,>250 µg/mL
c1cc(CN2CCCNCCCNCCNCCC2)ccc1CN1CCCNCCCNCCNCCC1,MT-4,,NL4-3,0.04 µg/mL
Cc1cn([C@H]2C[C@H](N=[N+]=[N-])[C@@H](CO)O2)c(=O)[nH]c1=O,MT-4,RT-K103R V179D P225H,EFV-resistant (RT K103R V179D P225H),0.02 µM
Cc1c(C(C)(C)C)s/c(=N\S(=O)(=O)c2ccccc2)n1C,MT-4,,IIIB,>25 µM

An empty or dashed field is not shown. Neighbouring rows are from separate reports.